No signal at the amounts used counts as a negative. Protein sequences can lack the tags named with them.
Molecular target: T1, M.HhaI (UniProt P05102)
T1 sequence (looked up, limits assumed): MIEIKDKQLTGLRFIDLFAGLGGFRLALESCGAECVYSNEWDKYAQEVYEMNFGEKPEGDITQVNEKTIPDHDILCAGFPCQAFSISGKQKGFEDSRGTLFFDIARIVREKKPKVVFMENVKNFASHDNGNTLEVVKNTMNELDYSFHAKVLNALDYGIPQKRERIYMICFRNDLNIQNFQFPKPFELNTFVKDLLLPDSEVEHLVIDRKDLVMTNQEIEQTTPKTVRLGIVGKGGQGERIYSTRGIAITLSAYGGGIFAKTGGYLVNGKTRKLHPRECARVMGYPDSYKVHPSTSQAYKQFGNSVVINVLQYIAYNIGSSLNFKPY
Assay: inhibition of the protein
Conditions: little to no inhibition at 5 uM RNA, pUC19 substrate, purified recombinant protein

Sequence | activity on this sequence (label: 5'-33P in pull-down, variant of asCEBPα-2) | activity on this sequence
GACAGUGGAGAGGGGCGGAGCGG [asCEBPα-2HPE] | not active | –
UUAAUGCUAAUCGUGAUAGGGGU [miR-155-5p] | – | not active

— patent publication US20160272977
